The series has as its target T1, Cra-His6 (FruR) (Salmonella enterica serovar Typhimurium) (UniProt P0A2P8).
T1 sequence (looked up): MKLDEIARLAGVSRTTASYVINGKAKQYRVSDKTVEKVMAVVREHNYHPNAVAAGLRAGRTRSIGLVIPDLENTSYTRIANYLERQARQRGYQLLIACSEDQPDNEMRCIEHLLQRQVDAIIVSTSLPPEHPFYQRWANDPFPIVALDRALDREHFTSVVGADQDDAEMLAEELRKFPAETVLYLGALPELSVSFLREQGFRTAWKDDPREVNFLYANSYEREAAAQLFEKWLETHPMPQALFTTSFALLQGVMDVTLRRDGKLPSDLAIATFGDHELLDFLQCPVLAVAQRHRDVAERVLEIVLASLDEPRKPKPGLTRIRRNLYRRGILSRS
Put plainly: EMSA. As to conditions: 10 mM Tris-HCl pH 8.0, 5% glycerol, 0.1 mM EDTA, 1 mM DTT, 37 C 20 min, 40 ng DNA, 6% native PAGE, ethidium bromide stain, recombinant protein, residues 1-334, protein details: C-terminal His6, probe letters rebuilt from the primers and the genome.

Setting [1] is: fructose-1,6-bisphosphate (up to 50 mM).

This is an account of results in publication PMC10100716.

Tags and fusion partners may be left off the protein sequences shown. The exact form of at least one protein or probe is not confirmed. A weaker result is weaker than the reference pair of the same experiment.

For “AGCATCAGCGATTTACCGACCTTTTGCAGGTTAGCAAATGCATTCTTAAACATAATTGAGAGTGCTCCTGAGTATTTGTGCTTTTCTACGTTCTCACGCATTGGCGAGGGGGGAGAACCCCGCCGTGGACAGGACATCTAAGTGCCCTTTTATTTATTACACAGAGTAAAATAAATACGTCTGATTTTGTTTGACGGCTATCACGTTTCAGCGCCAGATAGCCTAAAAAGTATCACATTCTGCCAAAATGAGTTTCCGAATGTTTCCATAAGCTCGCTCACCGCCCCTTTTGTGGCGGTGAACTTTACGCGTTTTGTTTATTAATTACGAGCTTTAAAAAAACTCGTTTAACGGATTGATGACAGGCGAGACGCGTCAATATGGAACA (double strand) [PptsG]”, the binding result is on record as “binds more weakly” under setting [1] and “binds” (no FBP, Cra 0-16 uM).
On to “AGACAACTGGTTTTTGGCAAAGATTTACCTTCCTTTGCAAAGAGATGTAACCAGGATATTTTACACTTCGAAATTTCTCATTATCGAAAACAAAATTACGGATCTCCATCACACAAAATATTTTTTTCGATATCTAAAATAATTCACGAAAATCATGCGTTTTTCGTTGTAACCCTCATCTGAATCGATTCGCTTGCGGACGGCGATTCAAAAAATACATCTGTCAAGTTGATGTGTTGACAATAATAAAGGAGGTAGCAAGTGACCATTGCTATTGTTATAGGCACACATGGTTGGGCTGCAGAGCAGTTACTTAAAACAGCCGAAATGC (double strand) [PmanX]”, for which the binding result is “binds” (250 uM c-di-GMP (tended to facilitate binding)); “binds more weakly” under setting [1]; “binds” (no FBP, Cra 0-16 uM).
